Experimental findings from publication PMC5507929, “Structural and Biochemical Characterization of Apicomplexan Inorganic Pyrophosphatases” (Scientific Reports, 2017) are described below.

For the data set, the system named is O=P(O)(O)OP(=O)(O)O. Kind of data set: purified protein. The following applies: pH 7.2, 37 °C, 100 mM NaCl, 1.4 nM enzyme, metal not stated for the table (3 mM Mg2+ for wild type).

As a reminder, the Km is the concentration of substrate that gives half-maximal velocity. As to “PfPPase (Plasmodium falciparum 3D7; D198N)”, the Km is given as 42.6 ± 2.1 µM.

As a reminder, the kcat is the number of substrate molecules converted per active site and unit of time at saturation. The term kcat/Km denotes the second-order rate constant that governs catalysis at low substrate concentration. For “PfPPase (Plasmodium falciparum 3D7; D203N)”, the Km stood at 53.8 ± 8.3 µM, the catalytic constant (kcat) worked out at 0.53 s⁻¹ and the kcat/Km was found to be 9850 M⁻¹ s⁻¹.

“PfPPase (Plasmodium falciparum 3D7; D235N)”: the Km was determined as 45.7 ± 2.1 µM, the kcat amounted to 52.5 s⁻¹ and the specificity constant (kcat/Km) worked out at 1.16e+06 M⁻¹ s⁻¹.

“PfPPase (Plasmodium falciparum 3D7; K136R)”: the Km worked out at 402.8 ± 16.4 µM, the catalytic constant (kcat) came to 21.8 s⁻¹ and the kcat/Km was determined as 53000 M⁻¹ s⁻¹.

As to “PfPPase (Plasmodium falciparum 3D7; R158K)”, the Km came out at 64.2 ± 3.2 µM, the kcat came to 60.4 s⁻¹ and the kcat/Km came out at 940000 M⁻¹ s⁻¹.
